Pooled drug test results. Numbers come from NIAID ChemDB, via PubChem.

Shared fields: growth or infection tests; species: Human herpesvirus 6; cell line: HSB-2; endpoint: EC50

Neighbouring rows are from separate reports. An empty or dashed field is not shown. ECn: concentration that inhibits the pathogen or its effect by n%.

compound	strain	method	value
COC(=O)[C@H](C)NP(=O)(OC[C@H]1C/C1=C/n1cnc2c(=O)[nH]c(N)nc21)Oc1ccccc1	GS	ELISA	90 µM
Nc1ncnc2c1ncn2[C@@H]1O[C@H](CO)[C@@H](O)[C@@H]1O	U1102 (TYPE 6A)	cytopathic effect	>3.2 µM
Nc1nc(N)c2ncn(CCOCP(=O)(O)O)c2n1	GS	cytopathic effect	3.3 µg/mL
Nc1nc(N)c2ncn(CCOCP(=O)(O)O)c2n1	U1102 (TYPE 6A)	cytopathic effect	>153 µM
C[C@H](Cn1cnc2c(N)nc(N)nc21)OCP(=O)(O)O	GS	antigen / flow cytometry	>300 µM
O=C(O)P(=O)(O)O	-	ELISA	31 µM
CC(C)(C)C(=O)OCOP(=O)(COCCn1cnc2c(N)ncnc21)OCOC(=O)C(C)(C)C	U1102 (TYPE 6A)	cytopathic effect	0.65 µM
O=c1[nH]c(=O)n([C@H]2C[C@H](O)[C@@H](CO)O2)cc1I	GS	cytopathic effect	>1500 µM
Nc1nc(N)c2ncn(C[C@@H](CO)OCP(=O)(O)O)c2n1	GS	antigen	12.1 µg/mL
COC(=O)[C@H](C)NP(=O)(OC[C@H]1C/C1=C\n1cnc2c(=O)[nH]c(N)nc21)Oc1ccccc1	GS	ELISA	>100 µM
Nc1nc2c(ncn2C[C@@H]2COP(=O)(O)CO2)c(=O)[nH]1	GS	antigen / flow cytometry	>25 µM
Nc1nc2c(ncn2CCOCP(=O)(O)O)c(=O)[nH]1	U1102 (TYPE 6A)	cytopathic effect	1.4 µM
Nc1nc2c(ncn2[C@@H]2C[C@H](CO)[C@H]2CO)c(=O)[nH]1	GS	antigen / flow cytometry	8.4 µM
Nc1ncnc2c1ncn2C[C@@H](CO)OCP(=O)(O)O	GS	antigen	2.7 µg/mL
Nc1ncnc2c1ncn2C[C@@H](CO)OCP(=O)(O)O	GS	cytopathic effect	10 µM
O=c1[nH]c(=O)n([C@@H]2O[C@H](CO)[C@@H](O)[C@@H]2O)cc1/C=C/Br	U1102 (TYPE 6A)	cytopathic effect	>232 µM
Nc1nc(N)c2nnn(C[C@@H](CO)OCP(=O)(O)O)c2n1	GS	cytopathic effect	>300 µM
Nc1ncnc2c1ncn2CCOCP(=O)(O)O	U1102 (TYPE 6A)	cytopathic effect	>277 µM